The text below walks through data of PMC4379099 (PLoS Pathogens, 2015).

For experiment [1], the target named is EFR::GFP (full-length Arabidopsis EFR with a carboxyl-terminal GFP fusion, transgenic rice) (Arabidopsis) (UniProt C0LGT6).
The target of experiment [2] is T1, EFR::XA21::GFP chimeric receptor (EFR ectodomain 1-649 fused to XA21 651-1025, carboxyl-terminal GFP, transgenic rice) (Arabidopsis | rice (Oryza longistaminata)) (UniProt C0LGT6).
T1 sequence: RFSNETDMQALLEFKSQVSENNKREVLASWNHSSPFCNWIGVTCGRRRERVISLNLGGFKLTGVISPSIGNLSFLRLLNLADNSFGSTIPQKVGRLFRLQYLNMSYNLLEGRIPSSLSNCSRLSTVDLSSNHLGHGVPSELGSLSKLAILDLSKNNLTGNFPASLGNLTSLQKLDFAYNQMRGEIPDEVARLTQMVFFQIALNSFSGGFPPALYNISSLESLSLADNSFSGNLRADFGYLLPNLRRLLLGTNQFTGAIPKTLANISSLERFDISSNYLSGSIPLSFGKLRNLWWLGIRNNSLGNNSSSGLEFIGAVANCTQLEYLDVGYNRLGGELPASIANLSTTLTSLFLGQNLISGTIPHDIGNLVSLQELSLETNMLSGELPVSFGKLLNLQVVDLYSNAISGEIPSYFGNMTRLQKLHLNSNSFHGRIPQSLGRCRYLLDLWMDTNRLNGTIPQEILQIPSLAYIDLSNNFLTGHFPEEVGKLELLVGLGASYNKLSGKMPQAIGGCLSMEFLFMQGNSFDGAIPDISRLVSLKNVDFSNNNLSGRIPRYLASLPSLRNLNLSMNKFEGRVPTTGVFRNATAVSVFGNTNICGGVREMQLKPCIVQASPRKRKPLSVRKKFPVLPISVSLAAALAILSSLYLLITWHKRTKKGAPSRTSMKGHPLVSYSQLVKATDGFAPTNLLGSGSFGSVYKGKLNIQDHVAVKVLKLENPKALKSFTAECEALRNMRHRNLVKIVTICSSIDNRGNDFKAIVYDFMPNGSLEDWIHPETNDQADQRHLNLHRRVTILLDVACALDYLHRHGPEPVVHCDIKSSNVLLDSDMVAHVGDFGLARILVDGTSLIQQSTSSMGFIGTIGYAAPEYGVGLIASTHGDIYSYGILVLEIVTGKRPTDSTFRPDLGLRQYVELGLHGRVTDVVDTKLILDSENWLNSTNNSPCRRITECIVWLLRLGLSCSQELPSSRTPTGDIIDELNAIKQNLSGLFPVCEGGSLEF

For elf18Xoo, the EC50 of ROS production in mature rice leaves (dose response curve) in experiment [1] stood at 0.3 nM; in experiment [2] it was 0.4 nM.
